Source: publication PMC5749684, “Tetrahydrocarbazoles are a novel class of potent P-type ATPase inhibitors with antifungal activity” (PLoS ONE, 2018)

Chains of the proteins cited; added tags and fusions are not shown.
UniProt P28877, whole entry: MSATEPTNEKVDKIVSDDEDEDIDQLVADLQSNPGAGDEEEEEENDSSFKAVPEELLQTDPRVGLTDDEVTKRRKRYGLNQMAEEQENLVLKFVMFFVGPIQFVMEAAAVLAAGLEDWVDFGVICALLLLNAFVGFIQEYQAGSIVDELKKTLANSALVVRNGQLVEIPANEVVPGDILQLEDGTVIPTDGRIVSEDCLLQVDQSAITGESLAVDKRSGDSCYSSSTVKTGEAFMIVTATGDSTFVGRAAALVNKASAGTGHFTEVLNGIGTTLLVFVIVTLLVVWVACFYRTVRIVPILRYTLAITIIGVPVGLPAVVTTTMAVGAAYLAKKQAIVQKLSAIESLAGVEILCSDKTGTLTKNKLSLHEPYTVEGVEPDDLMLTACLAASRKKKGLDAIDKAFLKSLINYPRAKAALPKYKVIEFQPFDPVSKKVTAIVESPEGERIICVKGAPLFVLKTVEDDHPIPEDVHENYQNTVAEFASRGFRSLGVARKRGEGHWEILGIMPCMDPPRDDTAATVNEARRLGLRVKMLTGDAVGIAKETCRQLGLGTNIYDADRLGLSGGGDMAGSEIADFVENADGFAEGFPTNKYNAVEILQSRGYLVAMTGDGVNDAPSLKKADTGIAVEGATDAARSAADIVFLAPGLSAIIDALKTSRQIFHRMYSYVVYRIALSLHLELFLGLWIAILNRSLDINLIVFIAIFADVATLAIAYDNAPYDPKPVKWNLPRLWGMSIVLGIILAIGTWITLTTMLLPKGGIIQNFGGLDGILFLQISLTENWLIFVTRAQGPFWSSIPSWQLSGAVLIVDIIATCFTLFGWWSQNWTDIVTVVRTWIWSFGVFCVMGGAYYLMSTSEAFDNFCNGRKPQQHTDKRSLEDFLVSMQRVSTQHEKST

Target: Candida albicans Pma1 (Candida albicans, UniProt P28877)
Experiment: ATP hydrolysis inhibition, C. albicans Pma1
Format: biochemical
Details: read-out: ATP hydrolysis IC50 CaPma1 (Table B); Table B in S1 File
Method: Candida albicans microsomes were prepared from 100 mL overnight culture in YPD (10 g/L yeast extract (BD, Sparks, MD), 20 g/L Bacto peptone (BD, Sparks, MD), 20 g/L D-(+)-glucose), transferred to 1 L YPD and grown at RT, 150 rpm, for 7 h. Cells were harvested and washed in deionized water followed by centrifugation at 3360 x g. The cells were glucose-activated by the addition of 10% (w/v) D-(+)-glucose for 10 minutes while shaking. […]
ATPase activity was determined by measuring the amount of liberated phosphate from ATP hydrolysis. […] The amount of liberated phosphate was determined colorimetrically after addition of STOP solution (mixture of L-ascorbic acid, ammonium heptamolybdate tetrahydrate, and HCl to give final concentrations of 65 mM, 2.2 mM, and 189 mM, respectively) with 5 minutes incubation at room temperature (RT) followed by addition of arsenite solution (mixture of NaAsO2, sodium citrate dihydrate, and acetic acid to give final concentrations of 3.1 mM, 28 mM, and 141 mM, respectively). Absorption was measured at 860 nm after additional 30 minutes incubation at RT.

Work on `CC1Cc2c([nH]c3cc(Cl)c(F)cc23)C2(N1)C(=O)Nc1ccc(Cl)cc12` (stereo not shown) yielded an IC50 of 150 nM.
